From patent US20250283886A1
Where “and” joins values, the source holds several entries; their conditions need not be identical. Identical values can stand only once.

How the values were obtained:
[1] = target: W (region with N-terminal W of … or …); test: real-time single-molecule sequencing trace with hTET and yPIP
…-dsQ24-Cy3B-SV [2] = test: as above
[3] = target: W (region with N-terminal W of … or …); test: real-time single-molecule sequencing with hTET and yPIP, middle trace
…-dsQ24-Cy3B-SV [4] = test: as above
[5] = target: polypeptide of sequence …; test: real-time single-molecule sequencing trace with hTET
[6] = target: … after VPr has cut Y and two alanine residues (N-terminal W); test: as above
[7] = target: … after VPr has further cut W and two alanine residues (N-terminal F); test: as above
[8] = target: W (region with N-terminal W of … or …); test: real-time single-molecule sequencing with hTET and yPIP, top trace
…-dsQ24-Cy3B-SV [9] = test: as above
[10] = target: W (region with N-terminal W of … or …); test: real-time single-molecule sequencing with hTET and yPIP, bottom trace
…-dsQ24-Cy3B-SV [11] = test: as above
[12] = target: W (region with N-terminal W of … or …); test: real-time single-molecule sequencing trace with hTET and yPIP; remark: listed apart in the source
…-dsQ24-Cy3B-SV [13] = test: as above; remark: listed apart in the source

B1: atClpS2-V1 (protein)
recognition protein: MSDSPVDLKPKPKVKPKLERPKLYKVMLLNDDYTPMSFVTVVLKAVFRMSEDTGRRVMMTAHRFGSAVVVVCERDIAETKAKEATDLGKEAGFPLMFTTEPEE
B1 showed a number printed under the region label (not named on the sheet) [1] of 0.15, a number printed under the region label (not named on the sheet) (…-dsQ24-Cy3B-SV [2]) of 0.32 and a number printed under the region label (not named on the sheet) [3] of 0.26. The number printed under the region label (not named on the sheet) (…-dsQ24-Cy3B-SV [4]) was 0.46, the number printed under the region label (not named on the sheet) [5] was 0.51 and the number printed under the region label (not named on the sheet) [6] was 0.12. The number printed under the region label (not named on the sheet) [7] was 1.41 and 1.49, the number printed under the region label (not named on the sheet) [8] was 0.27 and the number printed under the region label (not named on the sheet) (…-dsQ24-Cy3B-SV [9]) was 0.42. It also gave a number printed under the region label (not named on the sheet) [10] of 0.22, a number printed under the region label (not named on the sheet) (…-dsQ24-Cy3B-SV [11]) of 0.35 and a number printed under the region label (not named on the sheet) [12] of 0.21. The number printed under the region label (not named on the sheet) (…-dsQ24-Cy3B-SV [13]) was 1.08 and 0.4.
